The text below walks through data of article PMC10924945.

The exact form of at least one protein or probe is not confirmed. At least one verdict was read from the data and is not stated in words by the source.

The series addresses T1, BfmR (Pseudomonas aeruginosa PAO1) (UniProt Q9HWS7).
T1 sequence: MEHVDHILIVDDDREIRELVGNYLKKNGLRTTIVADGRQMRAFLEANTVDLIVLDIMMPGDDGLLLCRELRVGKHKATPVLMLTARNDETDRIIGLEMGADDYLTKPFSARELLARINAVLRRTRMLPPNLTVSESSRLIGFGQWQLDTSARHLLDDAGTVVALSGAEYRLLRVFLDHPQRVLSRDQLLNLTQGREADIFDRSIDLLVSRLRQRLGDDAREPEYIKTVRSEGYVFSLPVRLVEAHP
The series is described as follows: EMSA. The settings on record: 10 uM acetyl phosphate (binding enhanced); recombinant protein; residues 1-246; probe letters rebuilt from the primers and the genome.

In the case of “CATCGGATTCCTGCGAATACTACTGATAACGATAATCTCTATCATTTACTCCATTTTTACATTTACATACACTTGCCCCGCCGCGAATTCCTACGCCGGTTTCCCACATAAACAAGAAACGC (double strand) [PfpvB]”, the binding result is given as “binds”.
